Drawing on US9617289B2, “RSV antiviral compounds” (JANSSEN R&D IRELAND, priority 2012, dated 2017), this text covers SI and SI_TOX-HELA_wt for 21 compounds.

The data set concerns HeLa cells. In words: Cytotoxicity in HeLa cells (ATP content, ATPlite kit); SI calculated as CC50/EC50. Type of data set: cell-based. Particulars: SI is calculated as CC50/EC50, three days.

Each structure is given as a SMILES string. Where a name gives a salt, the structure may show the parent alone. The amount applied is not stated for every result.

For `CC(C)(C)OC(=O)N1CCC2(CC1)C(=O)N(Cc1cc3cc(Cl)ccc3n1CCCC#N)c1cnccc12` [Compound 63, tert-butyl 1′-((5-chloro-1-(3-cyanopropyl)-1H-indol-2-yl)-methyl)-2′-oxo-1′,2′-dihydrospiro[piperidine-4,3′-pyrrolo-[2,3-c]pyridine]-1-carboxylate], the SI is reported as 100580.

On to `N#CCCCn1c(CN2C(=O)C3(CCN(C(=O)OC4CC4)CC3)c3ccncc32)cc2cc(Cl)ccc21` [Compound 132, Cyclopropyl 1′-{[5-chloro-1-(3-cyanopropyl)-1H-indol-2-yl]methyl}-2′-oxo-1′,2′-dihydro-1H-spiro[piperidine-4,3′-pyrrolo[2,3-c]pyridine]-1-carboxylate], for which the SI_TOX-HELA_wt is reported as 281041.

Take `COC(=O)N1CCC2(CC1)C(=O)N(Cc1cc3cc(Cl)ccc3n1CCCC#N)c1cnccc12` [Compound 76]: the SI is on record as more than 263057.

`N#CCCCn1c(CN2C(=O)C3(CCN(C(=O)OC4COC4)CC3)c3ccncc32)nc2cc(Cl)ccc21` [Compound 82, oxetan-3-yl 1′-((5-chloro-1-(3-cyanopropyl)-1H-benzo[d]-imidazol-2-yl)methyl)-2′-oxo-1′,2′-dihydrospiro[piperidine-4,3′-pyrrolo[2,3-c]pyridine]-1-carboxylate]: the SI is given as more than 655360.

In the case of `N#CCCCn1c(CN2C(=O)C3(CCNCC3)c3ccncc32)nc2cc(Cl)ccc21` [Compound 84, 4-(5-chloro)-2-((2′-oxospiro[piperidine-4,3′-pyrrolo[2,3-c]-pyridin]-1′(2′H)-yl)methyl)-1H-benzo[d]imidazol-1-yl)butanenitrile hydrochloride], the SI was more than 176673.

Take `N#CCCCn1c(CN2c3ccccc3[C@]3(C[C@@H](N)C3)C2=O)nc2cc(Cl)ccc21` [Compound 148, 4-(2-(((1r,3r)-3-amino-2′-oxospiro[cyclobutane-1,3′-indolin]-1′-yl)methyl)-5-chloro-1H-benzo[d]imidazol-1-yl)butanenitrile]: the SI_TOX-HELA_wt is reported as 10550.

With `CC1CC2(CC(C)O1)C(=O)N(Cc1nc3cc(Cl)ccc3n1CCCS(C)(=O)=O)c1cnccc12` (stereo not drawn) [Compound 174, 1′-({5-Chloro-1-[3-(methylsulfonyl)propyl]-1H-benzimidazol-2-yl}methyl)-2,6-dimethyl-2,3,5,6-tetrahydrospiro[pyran-4,3′-pyrrolo[2,3-c]pyridin]-2′(1′H)-one], the SI_TOX-HELA_wt is on record as more than 5597.19.

Turning to `CC(C)(C)OC(=O)N1CC2(C1)C(=O)N(Cc1nc3cc(Cl)ccc3n1CCCS(C)(=O)=O)c1ccccc12` [Compound 4, tert-butyl 1′-({5-chloro-1-[3-(methylsulfonyl)propyl]-1H-benzimidazol-2-yl}methyl)-2′-oxo-1′,2′-dihydro-1H-spiro[azetidine-3,3′-indole]-1-carboxylate], the SI is reported as 654998.

For the compound `CS(=O)(=O)N1CC2(C1)C(=O)N(Cc1nc3cc(Cl)ccc3n1CCCC#N)c1ccccc12` [Compound 94, 4-(5-Chloro-2-{[1-(methylsulfonyl)-2′-oxospiro[azetidine-3,3′-indol]-1′(2′H)-yl]methyl}-1H-benzimidazol-1-yl)-butanenitrile], the SI_TOX-HELA_wt is more than 770442.

As for `CS(=O)(=O)CCCn1c(CN2C(=O)C3(CCN(S(C)(=O)=O)CC3)c3ccncc32)cc2cc(Cl)ccc21` [Compound 3, 1′-({5-chloro-1-[3-(methylsulfonyl)propyl]-1H-indol-2-yl}methyl)-1-(methylsulfonyl)spiro[piperidine-4,3′-pyrrolo[2,3-c]pyridin]-2′(1′H)-one], the SI was more than 3.237e+006.

In the case of `O=C1N(Cc2nc3nc(Cl)ccc3n2CCCC(F)(F)F)c2cnccc2C12CCOCC2` [Compound 67, 1′-((5-chloro-1-(4,4,4-trifluorobutyl)-1H-imidazo[4,5-b]-pyridin-2-yl)methyl)-2,3,5,6-tetrahydrospiro[pyran-4,3′-pyrrolo[2,3-c]pyridin]-2′(1′H)-one], the SI is recorded as 1260115.

As for `CC(C)(C)OC(=O)N1CCC2(CC1)C(=O)N(Cc1nc3cc(Cl)ccc3n1CCCC#N)c1cnccc12` [Compound 53, tert-butyl 1′-((5-chloro-1-(3-cyanopropyl)-1H-benzo[d]-imidazol-2-yl)methyl)-2′-oxo-1′,2′-dihydrospiro[piperidine-4,3′-pyrrolo[2,3-c]pyridine]-1-carboxylate], the SI is on record as more than 305014.

Take `CS(=O)(=O)CCCn1c(CN2C(=O)C3(CCN(S(=O)(=O)C4CC4)CC3)c3ccncc32)nc2cc(Cl)ccc21` [Compound 85, 1′-((5-chloro-1-(3-(methylsulfonyl)propyl)-1H-benzo[d]-imidazol-2-yl)methyl)-1-(cyclopropylsulfonyl)spiro-[piperidine-4,3′-pyrrolo[2,3-c]pyridin]-2′(1′H)-one]: the SI was more than 655360.

On to `N#CCCCn1c(CN2c3ccccc3[C@]3(C[C@H](NC(=O)OC4CC4)C3)C2=O)nc2cc(Cl)ccc21` [Compound 125, cyclopropyl ((1s,3s)-1′-((5-chloro-1-(3-cyanopropyl)-1H-benzo[d]imidazol-2-yl)methyl)-2′-oxospiro[cyclobutane-1,3′-indolin]-3-yl)carbamate], for which the SI_TOX-HELA_wt is recorded as more than 342949.

Regarding `CS(=O)(=O)CCCn1c(CN2C(=O)C3(CCCC3)c3ccncc32)nc2cc(Cl)ccc21` [Compound 37, 1′-((5-chloro-1-(3-(methylsulfonyl)propyl)-1H-benzo[d]-imidazol-2-yl)methyl)spiro[cyclopentane-1,3′-pyrrolo[2,3-c]pyridin]-2′(1′H)-one], the SI was more than 935083.

With `CS(=O)(=O)CCCn1c(CN2C(=O)C3(CCNCC3)c3c(Cl)cccc32)nc2cc(Cl)ccc21` [Compound 26, 4-chloro-1-({5-chloro-1-[3-(methylsulfonyl)propyl]-1H-benzimidazol-2-yl}methyl)spiro[indole-3,4′-piperidin]-2(1H)-one], the SI is 164.

For `N#CCCCn1c(CN2c3ccccc3[C@]3(C[C@H](N)C3)C2=O)nc2cc(Cl)ccc21` [Compound 149, 4-(2-(((1s,3s)-3-amino-2′-oxospiro[cyclobutane-1,3′-indolin]-1′-yl)methyl)-5-chloro-1H-benzo[d]imidazol-1-yl)butanenitrile], the SI_TOX-HELA_wt was 43155.

For the compound `N#CCCCn1c(CN2C(=O)C3(CN(S(=O)(=O)c4cccs4)C3)c3ccccc32)nc2cc(Cl)ccc21` [Compound 91], the SI_TOX-HELA_wt is more than 428924.

On to `CS(=O)(=O)CCCn1c(CN2C(=O)C3(CC(O)C3)c3ccccc32)nc2cc(Cl)ccc21` [Compound 11, (3S)-1′-({5-chloro-1-[3-(methylsulfonyl)propyl]-1H-benzimidazol-2-yl}methyl)-3-hydroxyspiro[cyclobutane-1,3′-indol]-2′(1′H)-one], for which the SI was more than 249735.

Regarding `CC(C)(C)OC(=O)N1CCC2(CC1)C(=O)N(Cc1nc3cc(Cl)ccc3n1CCCS(C)(=O)=O)c1ccccc12` [Compound 39, tert-butyl 1-((5-chloro-1-(3-(methylsulfonyl)propyl)-1H-benzo[d]imidazol-2-yl)methyl)-2-oxospiro[indoline-3,4′-piperidine]-1′-carboxylate], the SI is 59894.

For `O=C1N(Cc2nc3cc(Cl)ccc3n2CCCC(F)(F)F)c2cc(F)ccc2C12CCOCC2` [Compound 71, 1-((5-chloro-1-(4,4,4-trifluorobutyl)-1H-benzo[d]imidazol-2-yl)methyl)-6-fluoro-2′,3′,5′,6′-tetrahydrospiro[indoline-3,4′-pyran]-2-one], the SI is 12968.
